Measured values from several laboratories, pooled; numbers as filed in NIAID ChemDB.

All rows: growth or infection tests; agent: Herpes simplex virus 1; read by: cytopathic effect

Inhibition is in % at the dose shown (toxicity tests: loss of growth or viability). ECn is the concentration giving n% inhibition of infection, replication or growth. Blank or dashed fields: not listed here. Rows are shuffled and stem from different studies.

smiles	tested at	strain	cells	read-out	value
Nc1ccn(C[C@@H](CO)OCP(=O)(O)O)c(=O)n1	-	KOS GCV-resistant	HEL	EC50	0.32 µg/mL
COc1cc2c(c3c1c(=O)c1ccccc1n3C)C=CC(C)(C)O2	-	KOS	HeLa	EC50	>200 µg/mL
O=c1[nH]c(=O)n([C@H]2C[C@H](O)[C@@H](CO)O2)cc1/C=C/Br	-	KOS ACV-resistant	HEL	EC50	42.5 µg/mL
COP(=O)(CC(=O)O[C@H]1C[C@H](n2cc(CCCl)c(=O)[nH]c2=O)O[C@@H]1CO)OC	0.7 µM	BRAND	VERO	inhibition	>25%
Nc1ncnc2c1ncn2CCOCP(=O)(O)O	-	KOS PFA-resistant	HEL	EC50	66.7 µg/mL
CCC12C=CCN3CC[C@@]4(c5ccc(OC)cc5N(C)[C@H]4[C@@](O)(C(=O)OC)[C@@H]1OC(C)=O)[C@@H]32	-	KOS	HeLa	EC50	>200 µg/mL
CCOC(=O)P(=O)(O)OC[C@H]1O[C@@H](n2cc(CCCl)c(=O)[nH]c2=O)C[C@@H]1O	23.4 µM	BRAND	VERO	inhibition	>25%
Nc1ncnc2c1ncn2[C@@H]1O[C@H](CO)[C@@H](O)[C@@H]1O	-	KOS PMEDAP-resistant	HEL	EC50	19.6 µg/mL
COP(=O)(CC(=O)OC[C@H]1O[C@@H](n2cc(CCCl)c(=O)[nH]c2=O)C[C@@H]1O)OC	6.8 µM	BRAND	VERO	inhibition	>25%
O=C(O)CP(=O)(O)O	-	KOS BVDU-resistant	HEL	EC50	14.75 µg/mL
C[C@@H]1C[C@@H]([C@H](O)CC2CC(=O)NC(=O)C2)C(=O)[C@@H](C)C1	-	KOS	HeLa	EC50	>200 µg/mL
O=C(O)CP(=O)(O)O	71.4 µM	TK-	VERO	inhibition	>25%
CC[C@@H]1[C@@H](C)O[C@@](O)([C@@H](C)[C@H](O)[C@H](C)[C@H]2OC(=O)/C=C/C=C/[C@H](C)[C@@H]([C@@H](C)[C@@H](O)[C@H](C)[C@@]3(O)C[C@@H](O[C@H]4C[C@H](O)[C@H](O)[C@H](C)O4)[C@H](CC)[C@@H](C)O3)OC(=O)/C=C/C=C/[C@@H]2C)C[C@H]1O[C@H]1C[C@H](O)[C@H](O)[C@H](C)O1	-	KOS	HeLa	EC50	>200 µg/mL
Nc1nc2c(ncn2COCCOP(=O)(O)C(=O)O)c(=O)[nH]1	-	L2/R	VERO	EC95	>286 µM
O=C(CP(=O)(O)O)O[C@H]1C[C@H](n2cc(CCCl)c(=O)[nH]c2=O)O[C@@H]1CO	24.2 µM	BRAND	VERO	inhibition	>25%

A second listing of 2 rows from above:

{"smiles": "O=C(O)CP(=O)(O)O", "strain": "KOS BVDU-resistant", "cells": "HEL", "read-out": "EC50", "value": "14.75 µg/mL"}
{"smiles": "CCOC(=O)P(=O)(O)OC[C@H]1O[C@@H](n2cc(CCCl)c(=O)[nH]c2=O)C[C@@H]1O", "tested at": "23.4 µM", "strain": "BRAND", "cells": "VERO", "read-out": "inhibition", "value": ">25%"}